Results of unrelated studies side by side (data: NIAID ChemDB).

All rows: tests in culture; organism: Plasmodium falciparum; read-out: EC50

Rows are shuffled and stem from different studies. An empty or dashed field is not shown. ECn is the concentration giving n% inhibition of infection, replication or growth.

smiles	strain	changes	method	result
C#CCCC1CC2CCCC3CC(C)NC(=N1)N23	W2	-	LDH	19.24 µM
O=C(Nc1cc(C(F)(F)F)ccc1-n1cncn1)C1(c2cccc(Cl)c2)CC1	3D7A	-	-	0.02 µM
CN(CCCNc1ccnc2cc(Cl)ccc12)Cc1cc(=O)c(O)cn1C	K1	-	radiometric	0.04 µM
CCOC(=O)CCCN(C)c1cc(C#N)cc(C2(C3CCC3)C(C#N)=C(N)Oc3n[nH]c(C)c32)c1	NF54	-	radiometric	0.92 µM
O=c1cc(CNCCCCCCNc2ccnc3cc(Cl)ccc23)n(C2CC2)cc1Oc1ccccc1	K1	-	radiometric	0.03 µM
CCCCCCCCCC1CC2CCCC3CC(C)NC(=N1)N23	D6	-	LDH	3.44 µM
NC1=Nc2ccc(Cl)cc2C1(O)C1CC1	3D7	-	-	0.104 µM
Cc1[nH]nc2c1C(c1cc(C#N)cc(-c3ccc(C(=O)O)s3)c1)(C(C)C)C(C#N)=C(N)O2	NF54	-	radiometric	0.7 µM
CCCC[C@@H]1C[C@@H]2CCC[C@@H]3C[C@H](CCCC)NC(=N1)N32	W2	-	LDH	4.81 µM
N=C(N)c1ccc(OCCCCOc2ccc(C(=N)N)cc2[N+](=O)[O-])c([N+](=O)[O-])c1	D6	-	hypoxanthine uptake	0.139 µM
Cn1cc(O)c(=O)cc1CNCCCCNc1ccnc2cc(Cl)ccc12	K1	-	radiometric	0.07 µM
Cc1ccc(N2C(=O)[C@H](NC(=O)CCCCCNc3ccnc4cc(Cl)ccc34)[C@@H]2/C=C/c2ccccc2)cc1	W2	Chloroquine-resistant	flow cytometry	0.0898 µM
CC(C)CCC[C@@H]1C[C@@H]2CC[C@@H]3C[C@H](CCCC(C)C)NC(=N1)N32	D6	-	LDH	1.98 µM
NC1=Nc2ccc(Cl)cc2C1(O)c1cccc2ccccc12	Dd2	-	-	0.037 µM
Cn1cc(O)c(=O)cc1CNCCCCCCNc1ccnc2cc(Cl)ccc12	K1	-	radiometric	0.32 µM
COc1cc(C(=N)N)ccc1OCCCOc1ccc(C(=N)N)cc1OC	W2	-	hypoxanthine uptake	0.116 µM
CC1CC2CCCC3CC(CCc4ccccc4)N=C(N1)N32	D6	-	LDH	9.24 µM
NC1=Nc2cccc(Br)c2C1(O)Cc1ccccc1	3D7	-	-	>5 µM
CCc1ccc(Nc2nc(NCCNc3ccnc4cc(Cl)ccc34)nc(N3CCOCC3)n2)cc1	D6	-	-	0.47 µM
Cn1nc(C(F)(F)F)c(-c2ccc(Br)cc2)c1NC(=O)Nc1ccc(F)cc1F	KAE609R-3	KAE609-resistant (D1247Y)	SYBR Green / fluorescence	0.458 µM
N=C(N)c1ccc(NCCCNc2ccc(C(=N)N)cc2[N+](=O)[O-])c([N+](=O)[O-])c1	D6	-	hypoxanthine uptake	0.138 µM
CN(CCCNc1ccnc2cc(Cl)ccc12)Cc1cc(=O)c(O)cn1C1CC1	3D7	-	radiometric	0.3 µM
NC1=Nc2ccc(I)cc2C1(O)c1ccccc1	Dd2	-	-	0.338 µM
COc1cc2c(NC3CCN(C)CC3)nc(N3CCCN(C)CC3)nc2cc1OCc1ccccc1	Dd2	-	fluorescence	0.065 µM
CCCCOC(=O)CC[C@H](NC(=O)c1ccc(-c2cc(C#N)cc(C3(C(C)C)C(C#N)=C(N)Oc4n[nH]c(C)c43)c2)s1)C(=O)OCCCC	TM90C2B	-	radiometric	2.6 µM
Cc1ccc(N2C(=O)[C@H](NC(=O)CCCNc3ccnc4cc(Cl)ccc34)[C@@H]2/C=C/c2ccccc2)cc1	W2	Chloroquine-resistant	flow cytometry	0.0795 µM
C[C@H]1Cc2c([nH]c3cc(Cl)c(F)cc23)[C@@]2(N1)C(=O)Nc1ccc(Cl)cc12	KAE609R-2	KAE609-resistant (T418N/P990R)	SYBR Green / fluorescence	0.00547 µM
COc1cc(C(=N)N)ccc1OCCCCCOc1ccc(C(=N)N)cc1OC	W2	-	hypoxanthine uptake	0.101 µM
C[C@H]1CCc2c([nH]c3ccccc23)[C@@]2(N1)C(=O)Nc1ccc(Cl)cc12	GNF-Pf4492R-1	GNF-Pf4492-resistant A211T	SYBR Green / fluorescence	0.00163 µM
OCCCNc1nc(NCCCCNc2ccnc3cc(Cl)ccc23)nc(N2CCCCC2)n1	W2	-	-	1.17 µM
N=C(N)c1cccc(OCCCCCCOc2cccc(C(=N)N)c2)c1	W2	-	hypoxanthine uptake	0.114 µM
Cc1[nH]nc2c1C(c1cc(C#N)cc(-c3ccc(C(=O)O)cc3)c1)(C(C)C)C(C#N)=C(N)O2	NF54	-	radiometric	0.34 µM
CC(C)CN1C(=O)[C@@H](NCCCNc2ccnc3cc(Cl)ccc23)[C@H]1/C=C/c1ccccc1	W2	Chloroquine-resistant	flow cytometry	0.4103 µM
OCCNc1nc(NCCNc2ccnc3cc(Cl)ccc23)nc(N2CCOCC2)n1	D6	-	-	0.49 µM
CC(C)C1(c2cc(C#N)cc(C#N)c2)C(C#N)=C(N)Oc2[nH]ncc21	NF54	-	radiometric	0.49 µM
O=C(CCNc1ccnc2cc(Cl)ccc12)N[C@H]1C(=O)N(c2ccc(F)cc2)[C@H]1/C=C/c1ccccc1	W2	Chloroquine-resistant	flow cytometry	0.1482 µM
O=C(Nc1cc(C(F)(F)F)ccc1-n1cncn1)C1(c2cccc(C(F)(F)F)c2)CC1	Dd2	-	-	0.002 µM
N=C(N)c1ccc(NCCCCCNc2ccc(C(=N)N)cc2N)c(N)c1	D6	-	hypoxanthine uptake	0.084 µM
OCCNc1nc(NCCCNc2ccnc3cc(Cl)ccc23)nc(N2CCOCC2)n1	W2	-	-	2.06 µM
N=C(N)c1ccc(NCCCCCNc2ccc(C(=N)N)cc2[N+](=O)[O-])c([N+](=O)[O-])c1	W2	-	hypoxanthine uptake	0.248 µM
Cc1[nH]nc2c1C(c1cc(Cl)cc(C#N)c1)(C(C)C)C(C#N)=C(N)O2	NF54	-	radiometric	0.55 µM
COc1ccc2[nH]cc(C3(O)C(N)=Nc4ccc(Cl)cc43)c2c1	3D7	-	-	>5 µM
c1cc(C2=NCCN2)ccc1OCCCCOc1ccc(C2=NCCN2)cc1	D6	-	hypoxanthine uptake	0.164 µM

The last 2 rows once more:

smiles	strain	changes	method	result
COc1ccc2[nH]cc(C3(O)C(N)=Nc4ccc(Cl)cc43)c2c1	3D7	-	-	>5 µM
c1cc(C2=NCCN2)ccc1OCCCCOc1ccc(C2=NCCN2)cc1	D6	-	hypoxanthine uptake	0.164 µM